Anti-infective test results gathered from many reports (values: NIAID ChemDB through PubChem).

Shared fields: whole-cell or culture tests; organism: Vesicular stomatitis virus

ECn is the concentration giving n% inhibition of infection, replication or growth. Blank or dashed fields: not listed here. Conditions beyond the fields shown may differ between rows.

SMILES	cell line	endpoint	strain	read by	value
O=c1c2cccnc2[se]n1N(c1ccccc1)c1cc(Cl)ccn1		MIC			>1000 µg/mL
C[C@H](Cn1cnc2c(N)ncnc21)OCP(=O)(O)O		EC50		cytopathic effect	>525 µM
Clc1cc2nc[nH]c2cc1Cl	HeLa	EC50		cytopathic effect	>10 µg/mL
O=c1ccn([C@H]2C[C@H](O)[C@@H](CO)O2)c(=O)[nH]1	E6SM	EC50		cytopathic effect	>2000 µM
Nc1nc(N)c2ncn(C[C@H]3CC[C@@H](CO)C3)c2n1	HeLa	EC50		cytopathic effect	>200 µg/mL
Nc1ncnc2c1ccn2[C@@H]1O[C@H](CO)[C@@H](O)[C@H]1O	HeLa	EC50		cytopathic effect	0.07 µg/mL
O=c1[nH]c(=O)n([C@H]2C[C@H](O)[C@@H](CO)S2)cc1C1CC1	E6SM	EC50		cytopathic effect	>1500 µM
Nc1ncnc2c1ncn2[C@@H]1OC(C#CI)[C@@H](O)[C@H]1O	E6SM	EC50		cytopathic effect	0.08 µM
C[C@H]1C[C@@H](n2cnc3c(N)ncnc32)[C@H](O)[C@@H]1O	HeLa	EC50		cytopathic effect	2 µg/mL
NC(=O)c1c[se]c([C@@H]2O[C@H](CO)[C@@H](O)[C@H]2O)n1	HeLa	EC50	Indiana	cytopathic effect	9 µg/mL
OC[C@H]1O[C@@H](n2cnc3cc(Cl)c(Cl)cc32)[C@H](O)[C@@H]1O	HeLa	EC50		cytopathic effect	>10 µg/mL
O=c1[nH]c(=O)n([C@H]2C[C@H](O)[C@@H](CO)S2)cc1C1CCC1	E6SM	EC50		cytopathic effect	>1500 µM
Nc1nccc2c1ncn2[C@@H]1O[C@H](CO)[C@@H](O)[C@H]1O	HeLa	EC50		cytopathic effect	2 µg/mL
Nc1cc(OC[C@H](CO)OCP(=O)(O)O)nc(N)n1		EC50		cytopathic effect	>15 µM
O=c1[nH]c(=O)n([C@H]2C[C@H](O)[C@@H](CO)O2)cc1/C=C/Br	E6SM	EC50		cytopathic effect	>400 µg/mL
O[C@@H]1CC(n2cnc3cc(Cl)c(Cl)cc32)OC[C@@H]1O	HeLa	EC50		cytopathic effect	>100 µg/mL
Nc1nc2c(ncn2C[C@H]2CC[C@@H](CO)C2)c(=O)[nH]1	E6SM	EC50		cytopathic effect	>400 µg/mL
O=c1[nH]c(=O)n([C@H]2C[C@H](O)[C@@H](CO)O2)cc1C1CCC1	E6SM	EC50		cytopathic effect	>1500 µM
Nc1ncnc2c1ncn2C[C@H](O)CO	PRK	EC50		cytopathic effect	20 µg/mL
O=c1[nH]c(=O)n([C@H]2C[C@H](O)[C@@H](CO)O2)cc1C1CCCCC1	E6SM	EC50		cytopathic effect	>1200 µM
O=c1c2cccnc2[se]n1-c1ccc(Cl)cc1		MIC			500 µg/mL
CCc1cn([C@H]2C[C@H](O)[C@@H](CO)S2)c(=O)[nH]c1=O	E6SM	EC50		cytopathic effect	>2000 µM
C[n+]1cccc(-n2[se]c3ccccc3c2=O)c1		MIC			80 µg/mL
O[C@H]1[C@@H](O)COC(n2cnc3cc(Cl)c(Cl)cc32)[C@@H]1O	HeLa	EC50		cytopathic effect	>200 µg/mL
O=c1c2ccccc2[se]n1-c1cc([N+](=O)[O-])ccn1		MIC			500 µg/mL
Nc1ncnc2c1ncn2[C@@H]1C=C[C@@H](O)[C@H]1O	PRK	EC50		cytopathic effect	0.2 µg/mL
CCCc1cn([C@H]2C[C@H](O)[C@@H](CO)S2)c(=O)[nH]c1=O	E6SM	EC50		cytopathic effect	>50 µM
Nc1ncnc2c1c(Br)cn2[C@@H]1O[C@H](CO)[C@@H](O)[C@H]1O	HeLa	EC50		cytopathic effect	0.07 µg/mL
Nc1ncnc2c1ncn2[C@@H]1C=C(CO)[C@@H](O)[C@H]1O	PRK	EC50		cytopathic effect	0.02 µg/mL
Nc1ncnc2c1ncn2C[C@@H](CO)OCP(=O)(O)O		EC50		cytopathic effect	>50 µM
O=c1[nH][se]c2ncccc12		MIC			>1000 µg/mL
OC[C@H]1O[C@@H](n2cnc3cc(Cl)c(Cl)cc32)[C@@H](O)[C@H]1O	HeLa	EC50		cytopathic effect	>100 µg/mL
NC(=O)c1ncn([C@@H]2O[C@H](CO)[C@@H](O)[C@H]2O)n1	E6SM	EC50		cytopathic effect	192 µM
Nc1nc(N)c2nnn(C[C@H]3CC[C@@H](CO)C3)c2n1	E6SM	EC50		cytopathic effect	>400 µg/mL
Nc1ccn([C@@H]2C[C@H](CO)[C@@H](O)[C@H]2O)c(=O)n1	HK	EC50		cytopathic effect	85 µg/mL
Nc1nccc2c1ncn2[C@@H]1O[C@H](CO)[C@@H](O)[C@H]1O	HeLa	EC50		cytopathic effect	20 µg/mL
Nc1nccc2c1ncn2[C@@H]1O[C@H](CO)[C@@H](O)[C@H]1O	PRK	EC50		cytopathic effect	0.3 µg/mL

The last 3 rows once more:

{"SMILES": "Nc1ccn([C@@H]2C[C@H](CO)[C@@H](O)[C@H]2O)c(=O)n1", "cell line": "HK", "endpoint": "EC50", "read by": "cytopathic effect", "value": "85 µg/mL"}
{"SMILES": "Nc1nccc2c1ncn2[C@@H]1O[C@H](CO)[C@@H](O)[C@H]1O", "cell line": "HeLa", "endpoint": "EC50", "read by": "cytopathic effect", "value": "20 µg/mL"}
{"SMILES": "Nc1nccc2c1ncn2[C@@H]1O[C@H](CO)[C@@H](O)[C@H]1O", "cell line": "PRK", "endpoint": "EC50", "read by": "cytopathic effect", "value": "0.3 µg/mL"}